{
  "source": "patent US9234005B2",
  "about": "(priority 2011, dated 2016)",
  "molecular_target": "T1, PTPN4-PDZ (Homo sapiens, UniProt P29074, S499G)",
  "T1 sequence (P29074 499-604 S499G)": "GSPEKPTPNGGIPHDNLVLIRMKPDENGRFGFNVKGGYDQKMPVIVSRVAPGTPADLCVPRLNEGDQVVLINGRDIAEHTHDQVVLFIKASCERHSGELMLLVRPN",
  "test": "biochemical",
  "data": [
    {"molecule": "CC(C)[C@H](NC(=O)[C@H](CCC(=O)O)NC(=O)[C@@H](NC(=O)[C@H](CCC(=O)O)NC(=O)[C@H](CCCNC(=N)N)NC(=O)[C@H](CCC(=O)O)NC(=O)[C@H](Cc1ccc(O)cc1)NC(=O)[C@H](Cc1c[nH]c2ccccc12)NC(=O)[C@@H](N)CO)[C@@H](C)O)C(=O)O", "note": "[SEQ ID NO: 2, SWYERETEV]", "values": [
      {"measurement": "Kd", "value": 1090, "unit": "nM"}
    ]}
  ]
}
